# Test results published in paper PMC12892976, “Alkylation-based optimization of antifungal FPPS inhibitors yields a potent, broad-spectrum lipophilic zoledronate derivative” (mBio, 2025).
# Tested on: HEK-293T cells
# Assay: MTT reduction cytotoxicity assay
# Assay type: cell-based, human
# Conditions: for Ratio (GM fungal MIC vs HEK IC50): HEK IC50 relative to GM fungal MIC; for Ratio (GM fungal MICc vs HEK IC50): HEK IC50 relative to GM fungal MICc
Compound,Ratio (GM fungal MIC vs HEK IC50),Ratio (GM fungal MICc vs HEK IC50)
CCCCCCCCCN1CCC[C@H]1C(=O)N[C@H](CC(=O)OC)C(=O)OC [dmPDA9],0.126,0.188
CCCCCCCCCCCN1CCC[C@H]1C(=O)N[C@H](CC(=O)OC)C(=O)OC [dmPDA11],0.089,0.244
CCCCCCCCCCCCN1CCC[C@H]1C(=O)N[C@H](CC(=O)OC)C(=O)OC [dmPDA12],0.003,0.013
CCCCCCCCCCN1CCC[C@H]1C(=O)N[C@H](CC(=O)OC)C(=O)OC [dmPDA10],0.089,0.126
CCCCCCCCCN1CCC[C@H]1C(=O)N[C@@H](CC(=O)OC)C(=O)OC [dmPLA9],0.323,0.791
CCCCCCCCCCCN1CCC[C@H]1C(=O)N[C@@H](CC(=O)OC)C(=O)OC [dmPLA11],0.31,0.506
CCCCCCCCCCCCN1CCC[C@H]1C(=O)N[C@H](CC(=O)O)C(=O)O [PDA12],0.715,3.209
CCCCCCCCCCN1CCC[C@H]1C(=O)N[C@@H](CC(=O)OC)C(=O)OC [dmPLA10],0.076,0.197
CCCCCCCCCCCCN1CCC[C@H]1C(=O)N[C@@H](CC(=O)OC)C(=O)OC [dmPLA12],0.053,0.178
"O=P(O)(O)C(O)(Cn1ccnc1)P(=O)(O)O [ZOL, zoledronate]",13.404,92.814
